Results reported in ChEMBL document CHEMBL4364262 (J Med Chem, 2019).

Chains of the proteins cited; added tags and fusions are not shown.
UniProt P04757, whole entry, looked up: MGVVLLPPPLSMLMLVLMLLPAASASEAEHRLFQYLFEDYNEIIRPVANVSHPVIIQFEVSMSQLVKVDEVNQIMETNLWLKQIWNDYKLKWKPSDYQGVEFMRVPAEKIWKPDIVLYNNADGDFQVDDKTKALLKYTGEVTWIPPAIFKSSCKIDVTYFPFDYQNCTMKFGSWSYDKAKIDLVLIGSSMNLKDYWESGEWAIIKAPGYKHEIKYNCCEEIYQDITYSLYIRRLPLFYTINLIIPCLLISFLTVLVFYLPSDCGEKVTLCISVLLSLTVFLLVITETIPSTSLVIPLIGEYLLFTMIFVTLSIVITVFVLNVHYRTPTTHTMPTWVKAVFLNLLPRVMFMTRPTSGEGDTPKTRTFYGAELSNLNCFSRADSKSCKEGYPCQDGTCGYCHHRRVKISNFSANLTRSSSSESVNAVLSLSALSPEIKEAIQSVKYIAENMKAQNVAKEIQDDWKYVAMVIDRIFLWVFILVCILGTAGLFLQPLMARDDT
UniProt P12390, whole entry, looked up: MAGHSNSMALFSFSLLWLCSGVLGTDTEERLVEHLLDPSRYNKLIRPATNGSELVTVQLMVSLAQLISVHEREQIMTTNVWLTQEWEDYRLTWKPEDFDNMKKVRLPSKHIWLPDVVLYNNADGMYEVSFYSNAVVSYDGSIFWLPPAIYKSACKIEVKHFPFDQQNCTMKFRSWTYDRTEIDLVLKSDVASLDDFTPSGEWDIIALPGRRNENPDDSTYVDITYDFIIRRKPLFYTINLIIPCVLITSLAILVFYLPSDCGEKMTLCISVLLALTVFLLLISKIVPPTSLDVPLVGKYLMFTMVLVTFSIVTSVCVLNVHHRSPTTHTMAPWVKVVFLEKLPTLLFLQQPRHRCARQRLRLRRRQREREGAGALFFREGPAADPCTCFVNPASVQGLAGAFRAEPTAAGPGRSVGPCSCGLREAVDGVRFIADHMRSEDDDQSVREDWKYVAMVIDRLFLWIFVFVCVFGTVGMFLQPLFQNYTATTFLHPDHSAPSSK

Experiments:
Rattus norvegicus [1] = organism: Rattus norvegicus; assay: Selectivity ratio, ratio of IC50 for rat alpha4beta2 nACHR expressed in Xenopus laevis oocytes to IC50 for rat alpha3beta2 nACHR expressed in Xenopus laevis oocytes
Rattus norvegicus [2] = organism: Rattus norvegicus; assay: Selectivity ratio, ratio of IC50 for rat alpha6alpha3beta4 nAChR expressed in Xenopus laevis oocytes to IC50 for rat alpha3beta2 nACHR expressed in Xenopus laevis oocytes
Rattus norvegicus [3] = organism: Rattus norvegicus; assay: Selectivity ratio, ratio of IC50 for rat alpha7 nAChR expressed in Xenopus laevis oocytes to IC50 for rat alpha3beta2 nACHR expressed in Xenopus laevis oocytes
Rattus norvegicus [4] = organism: Rattus norvegicus; assay: Selectivity ratio, ratio of IC50 for rat alpha3beta4 nACHR expressed in Xenopus laevis oocytes to IC50 for rat alpha3beta2 nACHR expressed in Xenopus laevis oocytes
Rattus norvegicus [5] = organism: Rattus norvegicus; assay: Selectivity ratio of IC50 for rat alpha6/alpha3beta2beta3 nAChR expressed in Xenopus laevis oocytes to IC50 for rat alpha3beta2 nACHR expressed in Xenopus laevis oocytes
[6] = biological target: Neuronal acetylcholine receptor; alpha3/beta2 (Rattus norvegicus) (UniProt P04757+P12390); assay: Antagonist activity at rat alpha3beta2 nACHR expressed in Xenopus laevis oocytes assessed as inhibition of Ach-induced response at -70 mV holding potential by two electrode voltage-clamp assay relative to PeIA logIC50

| SMILES | Ratio IC50 (Rattus norvegicus [1]) | Ratio IC50 (Rattus norvegicus [2]) | Ratio IC50 (Rattus norvegicus [3]) | Ratio IC50 (Rattus norvegicus [4]) | Ratio IC50 (Rattus norvegicus [5]) | FC [6] |
| --- | --- | --- | --- | --- | --- | --- |
| CC[C@H](C)[C@@H]1NC(=O)[C@H](Cc2cnc[nH]2)NC(=O)[C@@H]2CSSC[C@H](NC(=O)CN)C(=O)N[C@@H](CSSC[C@@H](C(N)=O)NC(=O)[C@H](CC(C)C)NC(=O)[C@H](CCC(=O)O)NC(=O)[C@@H]3CCCN3C(=O)[C@H](Cc3cnc[nH]3)NC(=O)[C@H](CCCCC(=O)O)NC1=O)C(=O)N[C@@H](CO)C(=O)N[C@@H](Cc1cnc[nH]1)C(=O)N1CCC[C@H]1C(=O)N[C@@H](C)C(=O)N2 | 742 | 114 | 84 | 1330 | 59 |  |
| CC(C)C[C@@H]1NC(=O)[C@H](CCC(=O)O)NC(=O)[C@@H]2CCCN2C(=O)[C@H](Cc2cnc[nH]2)NC(=O)[C@H](CC(N)=O)NC(=O)[C@H](C(C)C)NC(=O)[C@H]([C@@H](C)O)NC(=O)[C@@H]2CSSC[C@H](NC(=O)CN)C(=O)N[C@@H](CSSC[C@@H](C(N)=O)NC1=O)C(=O)N[C@@H](CO)C(=O)N[C@@H](Cc1cnc[nH]1)C(=O)N1CCC[C@H]1C(=O)N[C@@H](C)C(=O)N2 |  |  |  |  | 1 | -0.4 |
| CC[C@H](C)[C@@H]1NC(=O)[C@H](CCC(=O)O)NC(=O)[C@@H]2CCCN2C(=O)[C@H](Cc2cnc[nH]2)NC(=O)[C@H](CCCCC(=O)O)NC(=O)[C@H]([C@@H](C)CC)NC(=O)[C@H](Cc2cnc[nH]2)NC(=O)[C@@H]2CSSC[C@H](NC(=O)CN)C(=O)N[C@@H](CSSC[C@@H](C(N)=O)NC1=O)C(=O)N[C@@H](CO)C(=O)N[C@@H](Cc1cnc[nH]1)C(=O)N1CCC[C@H]1C(=O)N[C@@H](C)C(=O)N2 | 998 | 134 | 60 | 595 | 102 |  |
| CC(C)C[C@@H]1NC(=O)[C@H](CCC(=O)O)NC(=O)[C@@H]2CCCN2C(=O)[C@H](Cc2cnc[nH]2)NC(=O)[C@H](CC(=O)O)NC(=O)[C@H](C(C)C)NC(=O)[C@H](CO)NC(=O)[C@@H]2CSSC[C@H](NC(=O)CN)C(=O)N[C@@H](CSSC[C@@H](C(N)=O)NC1=O)C(=O)N[C@@H](CO)C(=O)N[C@@H](Cc1cnc[nH]1)C(=O)N1CCC[C@H]1C(=O)N[C@@H](C)C(=O)N2 |  |  |  |  | 7 | 0.4 |
| CCCC[C@@H]1NC(=O)[C@H](Cc2cnc[nH]2)NC(=O)[C@@H]2CSSC[C@H](NC(=O)CN)C(=O)N[C@@H](CSSC[C@@H](C(N)=O)NC(=O)[C@H](CC(C)C)NC(=O)[C@H](CCC(=O)O)NC(=O)[C@@H]3CCCN3C(=O)[C@H](Cc3cnc[nH]3)NC(=O)[C@H](CCCCC(=O)O)NC1=O)C(=O)N[C@@H](CO)C(=O)N[C@@H](Cc1cnc[nH]1)C(=O)N1CCC[C@H]1C(=O)N[C@@H](C)C(=O)N2 | 1460 | 92 | 14 | 129 | 220 |  |
| CC[C@H](C)[C@@H]1NC(=O)[C@H](CCC(=O)O)NC(=O)[C@@H]2CCCN2C(=O)[C@H](Cc2cnc[nH]2)NC(=O)[C@H](CC(N)=O)NC(=O)[C@H](C(C)C)NC(=O)[C@H](CO)NC(=O)[C@@H]2CSSC[C@H](NC(=O)CN)C(=O)N[C@@H](CSSC[C@@H](C(N)=O)NC1=O)C(=O)N[C@@H](CO)C(=O)N[C@@H](Cc1cnc[nH]1)C(=O)N1CCC[C@H]1C(=O)N[C@@H](C)C(=O)N2 |  |  |  |  | 2 | -0.5 |
| CC(C)C[C@@H]1NC(=O)[C@H](CC(=O)O)NC(=O)[C@@H]2CCCN2C(=O)[C@H](Cc2cnc[nH]2)NC(=O)[C@H](CC(N)=O)NC(=O)[C@H](C(C)C)NC(=O)[C@H](CO)NC(=O)[C@@H]2CSSC[C@H](NC(=O)CN)C(=O)N[C@@H](CSSC[C@@H](C(N)=O)NC1=O)C(=O)N[C@@H](CO)C(=O)N[C@@H](Cc1cnc[nH]1)C(=O)N1CCC[C@H]1C(=O)N[C@@H](C)C(=O)N2 |  |  |  |  | 0.3 | 0.5 |
| CC(C)C[C@@H]1NC(=O)[C@H](CCC(=O)O)NC(=O)[C@@H]2CCCN2C(=O)[C@H](Cc2cnc[nH]2)NC(=O)[C@H](CC(N)=O)NC(=O)[C@H](CC(C)C)NC(=O)[C@H](CO)NC(=O)[C@@H]2CSSC[C@H](NC(=O)CN)C(=O)N[C@@H](CSSC[C@@H](C(N)=O)NC1=O)C(=O)N[C@@H](CO)C(=O)N[C@@H](Cc1cnc[nH]1)C(=O)N1CCC[C@H]1C(=O)N[C@@H](C)C(=O)N2 |  |  |  |  | 2 | -0.3 |
| CC(C)[C@@H]1NC(=O)[C@H](CCC(=O)O)NC(=O)[C@@H]2CCCN2C(=O)[C@H](Cc2cnc[nH]2)NC(=O)[C@H](CC(N)=O)NC(=O)[C@H](C(C)C)NC(=O)[C@H](CO)NC(=O)[C@@H]2CSSC[C@H](NC(=O)CN)C(=O)N[C@@H](CSSC[C@@H](C(N)=O)NC1=O)C(=O)N[C@@H](CO)C(=O)N[C@@H](Cc1cnc[nH]1)C(=O)N1CCC[C@H]1C(=O)N[C@@H](C)C(=O)N2 |  |  |  |  | 0.1 | 0.3 |
| CC(C)C[C@@H]1NC(=O)[C@H](CCC(=O)O)NC(=O)[C@@H]2CCCN2C(=O)[C@H](Cc2cnc[nH]2)NC(=O)[C@H](CCCCC(=O)O)NC(=O)[C@H](C(C)C)NC(=O)[C@H](CO)NC(=O)[C@@H]2CSSC[C@H](NC(=O)CN)C(=O)N[C@@H](CSSC[C@@H](C(N)=O)NC1=O)C(=O)N[C@@H](CO)C(=O)N[C@@H](Cc1cnc[nH]1)C(=O)N1CCC[C@H]1C(=O)N[C@@H](C)C(=O)N2 |  |  |  |  | 300 | -0.1 |
| CC(C)C[C@@H]1NC(=O)[C@H](CCC(=O)O)NC(=O)[C@@H]2CCCN2C(=O)[C@H](Cc2cnc[nH]2)NC(=O)[C@H](CC(N)=O)NC(=O)[C@H](C(C)C)NC(=O)[C@H](Cc2cnc[nH]2)NC(=O)[C@@H]2CSSC[C@H](NC(=O)CN)C(=O)N[C@@H](CSSC[C@@H](C(N)=O)NC1=O)C(=O)N[C@@H](CO)C(=O)N[C@@H](Cc1cnc[nH]1)C(=O)N1CCC[C@H]1C(=O)N[C@@H](C)C(=O)N2 |  |  |  |  | 1 | -1.2 |
| CC(C)[C@@H]1NC(=O)[C@H](CO)NC(=O)[C@@H]2CSSC[C@H](NC(=O)CN)C(=O)N[C@@H](CSSC[C@@H](C(N)=O)NC(=O)[C@H](C)NC(=O)[C@H](CCC(=O)O)NC(=O)[C@@H]3CCCN3C(=O)[C@H](Cc3cnc[nH]3)NC(=O)[C@H](CC(N)=O)NC1=O)C(=O)N[C@@H](CO)C(=O)N[C@@H](Cc1cnc[nH]1)C(=O)N1CCC[C@H]1C(=O)N[C@@H](C)C(=O)N2 |  |  |  |  | 0.1 | 1.6 |
| CC(C)C[C@@H]1NC(=O)[C@H](CCCNC(=N)N)NC(=O)[C@@H]2CCCN2C(=O)[C@H](Cc2cnc[nH]2)NC(=O)[C@H](CC(N)=O)NC(=O)[C@H](C(C)C)NC(=O)[C@H](CO)NC(=O)[C@@H]2CSSC[C@H](NC(=O)CN)C(=O)N[C@@H](CSSC[C@@H](C(N)=O)NC1=O)C(=O)N[C@@H](CO)C(=O)N[C@@H](Cc1cnc[nH]1)C(=O)N1CCC[C@H]1C(=O)N[C@@H](C)C(=O)N2 |  |  |  |  | 0.1 | 0.7 |
| CC(C)C[C@@H]1NC(=O)[C@H](CCC(=O)O)NC(=O)[C@@H]2CCCN2C(=O)[C@H](Cc2cnc[nH]2)NC(=O)[C@H](CC(N)=O)NC(=O)[C@H]([C@@H](C)O)NC(=O)[C@H](CO)NC(=O)[C@@H]2CSSC[C@H](NC(=O)CN)C(=O)N[C@@H](CSSC[C@@H](C(N)=O)NC1=O)C(=O)N[C@@H](CO)C(=O)N[C@@H](Cc1cnc[nH]1)C(=O)N1CCC[C@H]1C(=O)N[C@@H](C)C(=O)N2 |  |  |  |  | 1 | 0.1 |
| CC(C)C[C@@H]1NC(=O)[C@H](CCC(=O)O)NC(=O)[C@@H]2CCCN2C(=O)[C@H](Cc2cnc[nH]2)NC(=O)[C@H](CCCC(=O)O)NC(=O)[C@H](C(C)C)NC(=O)[C@H](CO)NC(=O)[C@@H]2CSSC[C@H](NC(=O)CN)C(=O)N[C@@H](CSSC[C@@H](C(N)=O)NC1=O)C(=O)N[C@@H](CO)C(=O)N[C@@H](Cc1cnc[nH]1)C(=O)N1CCC[C@H]1C(=O)N[C@@H](C)C(=O)N2 |  |  |  |  | 81 | 0.8 |
| CC(C)C[C@@H]1NC(=O)[C@H](CCC(=O)O)NC(=O)[C@@H]2CCCN2C(=O)[C@H](Cc2cnc[nH]2)NC(=O)[C@H](CC(N)=O)NC(=O)[C@H](C)NC(=O)[C@H](CO)NC(=O)[C@@H]2CSSC[C@H](NC(=O)CN)C(=O)N[C@@H](CSSC[C@@H](C(N)=O)NC1=O)C(=O)N[C@@H](CO)C(=O)N[C@@H](Cc1cnc[nH]1)C(=O)N1CCC[C@H]1C(=O)N[C@@H](C)C(=O)N2 |  |  |  |  | 1 | -0.8 |
| CCCC[C@@H]1NC(=O)[C@H](CO)NC(=O)[C@@H]2CSSC[C@H](NC(=O)CN)C(=O)N[C@@H](CSSC[C@@H](C(N)=O)NC(=O)[C@H](CC(C)C)NC(=O)[C@H](CCC(=O)O)NC(=O)[C@@H]3CCCN3C(=O)[C@H](Cc3cnc[nH]3)NC(=O)[C@H](CC(N)=O)NC1=O)C(=O)N[C@@H](CO)C(=O)N[C@@H](Cc1cnc[nH]1)C(=O)N1CCC[C@H]1C(=O)N[C@@H](C)C(=O)N2 |  |  |  |  | 2 | -0.3 |
